This passage reports Kd results from paper PMC11992040.

The target in the assay is Sm-gp41 (PM): soluble SARS-CoV-2 spike trimer with HIV gp41 molecular clamp, paucimannose glycoform (SARS-CoV-2 | HIV). As to the kind of experiment: SPR; Biacore T200; spike trimer (10 µg/mL) captured on anti-RBD VHH 11-human IgG1 Fc amine-coupled to a CM-5 chip; hACE2 flowed over, single cycle kinetics, three concentrations, 5-fold dilution from 200 nM; 25 °C; PBS, 0.05% Tween 20, 3.4 mM EDTA; 1:1 binding model; values of single injection cycles (n = 3).

Several values for one entry are separate records, joined by “and”; a condition that tells them apart may be missing. Equal values may be shown once.

The Kd is the free concentration of one partner at which half of the binding sites on the other are occupied at equilibrium, for simple one-to-one binding. Consider “monomeric human ACE2 (from UniProt Q9BYF1 18-805) (receptor)”, for which the equilibrium dissociation constant (Kd) is 52.1 nM and 54.8 nM.
